A mixed list of measured activities; the numbers were collected in NIAID ChemDB.

All rows: growth or infection tests

Lines come from different laboratories, so protocols vary. Inhibition is in % at the dose shown (toxicity tests: loss of growth or viability). An empty or dashed field is not shown. A number after MIC or MFC names an inhibition level or a share of isolates.

SMILES,agent,strain,read by,setting,read-out,dose,value
CCCCCCCCCCCCCCCCCCCCCCOC(=O)NC(C)(CCC(=O)O)CCC(=O)O,Mycobacterium chelonae,EO-P-1,-,-,MIC,-,630 µg/mL
CO[C@@]1(NC(=O)C2SC(=C(C(N)=O)C(=O)[O-])S2)C(=O)N2C(C(=O)[O-])=C(CSc3nnnn3C)CS[C@@H]21,Mycobacterium fortuitum,1049,-,-,MIC,-,50 µg/mL
Cc1ccc2oc(=O)n(-c3ccc(Br)cc3)c(=S)c2c1,Mycobacterium kansasii,My 235/80,-,21 d,MIC,-,4 µM
CO[C@@]1(NC(=O)CSCC#N)C(=O)N2C(C(=O)O)=C(CSc3nnnn3C)CS[C@@H]21,Mycobacterium fortuitum,1059,-,-,MIC,-,12.5 µg/mL
CCc1nc2cc(F)ccn2c1C(=O)NCc1ccc(C2CCN(c3ccc(C)cc3)CC2)cc1F.Cl,Mycobacterium avium,-,fluorescence,-,inhibition,0.0054 µM,85%
CO[C@@]1(NC(=O)CCCC(N)C(=O)O)C(=O)N2C(C(=O)O)=C(COC(C)=O)CSC21,Mycobacterium fortuitum,914-8,-,-,MIC,-,100 µg/mL
CCCCCCCCCCCCCCCCCCCCCCCOC(=O)NC(CCC(=O)O)(CCC(=O)O)CCC(=O)O,Mycobacterium abscessus,AAy-P-1,-,-,MIC,-,576 µg/mL
COc1ccc(CCNc2ncnc3ccccc23)cc1,Mycobacterium bovis BCG,-,luminescence,-,MIC50,-,>10 µM
CO[C@@]1(NC(=O)CCCC(N)C(=O)O)C(=O)N2C(C(=O)O)=C(COC(N)=O)CSC21,Mycobacterium fortuitum,1260,-,-,MIC,-,>100 µg/mL
Cc1ccn2c(C(=O)NCc3ccc(C4CCN(c5ccc(OC(F)(F)F)cc5)CC4)cc3F)c(C)nc2c1,Mycobacterium avium,-,fluorescence,-,inhibition,0.58 µM,85%
CO[C@H]1/C=C/O[C@@]2(C)Oc3c(C)c(O)c4c(=O)c(c5oc6cc(N7CCN(CC(C)C)CC7)cc(=O)c6nc5c4c3=C2O)NC(=O)/C(C)=C\C=C\[C@H](C)[C@H](O)[C@@H](C)[C@@H](O)[C@@H](C)[C@H](OC(C)=O)[C@@H]1C,Mycobacterium ulcerans,Isolate 5143,-,-,MBC,-,0.025 µg/mL
Cc1nc2cc(F)ccn2c1C(=O)NCc1ccc(N2CCN(c3ccc(OC(F)(F)F)cc3)[C@@H](C)C2)c(F)c1,Mycobacterium avium,-,fluorescence,-,inhibition,0.0026 µM,85%
CCCCCCCCCCCCCCCCCCCCCOC(=O)NC(CCC(=O)O)(CCC(=O)O)CCC(=O)O,Mycobacterium marinum,ATCC 927,-,-,MIC,-,9 µg/mL
COc1ccn2nc(C)c(C(=O)NCc3ccc(N4CCN(c5ccc(OC(F)(F)F)cc5)[C@@H](C)C4)cc3)c2c1,Mycobacterium avium,-,fluorescence,-,inhibition,0.0058 µM,85%
CO[C@H]1/C=C/O[C@@]2(C)Oc3c(C)c(O)c4c(O)c(c(/C=N/N5CCN(C6CCCC6)CC5)c(O)c4c3C2=O)NC(=O)/C(C)=C\C=C\[C@H](C)[C@H](O)[C@@H](C)[C@@H](O)[C@@H](C)[C@H](OC(C)=O)[C@@H]1C,Mycobacterium avium intracellulare,92,-,-,MIC,-,0.25 µg/mL
COc1ccc2oc(=O)n(-c3ccc(Cl)c(Cl)c3)c(=S)c2c1,Mycobacterium kansasii,6509/96,-,21 d,MIC,-,62.5 µM
CCc1nc2cc(F)ccn2c1C(=O)NCc1cc(F)c(N2CCN(c3ccc(OC(F)(F)F)cc3)[C@@H](C)C2)cc1F.Cl,Mycobacterium avium,-,fluorescence,-,inhibition,0.0072 µM,85%
FC(F)(F)c1ccc(-n2c(=S)oc3ccc(Cl)cc3c2=S)cc1,Mycobacterium kansasii,My 235/80,-,14 d,MIC,-,16 µM
FC(F)(F)c1ccc(Oc2ccccc2Nc2ncnc3ccccc23)cc1,Mycobacterium bovis BCG,-,luminescence,-,MIC50,-,>50 µM
Cc1nc2ccc(Cl)cn2c1C(=O)NCc1ccc(N2C[C@H](C)N(c3ccc(OC(F)(F)F)cc3)C[C@H]2C)c(F)c1,Mycobacterium avium,-,fluorescence,-,inhibition,0.022 µM,85%
CO[C@@]1(NC(=O)Cc2ccccc2)C(=O)N2C(C(=O)[O-])=C(CSc3nnc(C)s3)CSC21,Mycobacterium fortuitum,4-May,-,-,MIC,-,25 µg/mL
CCc1nc2ccc(Cl)cn2c1C(=O)NCc1cc(F)c(Oc2ccc(Oc3ccc(OC(F)(F)F)cc3)cc2)c(F)c1.Cl,Mycobacterium avium,-,fluorescence,-,inhibition,0.018 µM,85%
CC1(C)N=C(N)N=C(N)N1OCCCOc1cc(Cl)c(Cl)cc1Cl,Mycobacterium avium complex,1317,-,-,MIC,-,4 µg/mL
S=c1oc2ccc(Br)cc2c(=S)n1-c1ccc(Cl)cc1,Mycobacterium kansasii,6509/96,-,21 d,MIC,-,4 µM
CCCCCCCCCCN(CCCCCCCCCC)C(=O)NC(CCC(=O)O)(CCC(=O)O)CCC(=O)O,Mycobacterium chelonae,EO-P-1,-,-,MIC,-,54 µg/mL
O=c1oc2ccc(Br)cc2c(=S)n1-c1ccc(C(F)(F)F)cc1,Mycobacterium kansasii,6509/96,-,14 d,MIC,-,8 µM
COc1ccn2nc(C)c(C(=O)NCc3ccc(N4CCN(c5ccc(OC(F)(F)F)cc5)[C@@H](C)C4)c(Cl)c3)c2c1.Cl,Mycobacterium avium,-,fluorescence,-,inhibition,0.014 µM,85%
CCCCCCCCCCCCCC(=O)NC(CCC(=O)O)(CCC(=O)O)CCC(=O)O,Mycobacterium abscessus,AAy-P-1,-,-,MIC,-,144 µg/mL
FC(F)(F)c1ccc(N2CCC(Oc3ccc(Nc4ncnc5ccccc45)cc3)CC2)cc1,Mycobacterium bovis BCG,-,luminescence,-,MIC50,-,>10 µM
CCCCCCCCCCCCCCCCCCOC(=O)NC(C)(CCC(=O)O)CCC(=O)O,Mycobacterium chelonae,EO-P-1,-,-,MIC,-,69 µg/mL
CC(Cc1ccc(C(C)(C)C)cc1)Nc1ncnc2ccccc12,Mycobacterium bovis BCG,-,luminescence,-,MIC50,-,>20 µM
Cc1nc2ccc(Cl)cn2c1C(=O)NCc1ccc(N2CCN(c3ccc(OC(F)(F)F)cc3)[C@@H](C)C2)c(Cl)c1.Cl,Mycobacterium avium,-,fluorescence,-,inhibition,0.0057 µM,85%
CCCCCCCCCCCCCCCCCCNC(=O)NC(CCC(=O)O)(CCC(=O)O)CCC(=O)O,Mycobacterium chelonae,EO-P-1,-,-,MIC,-,3 µg/mL
Clc1ccc(Oc2cccc(CNc3ncnc4ccccc34)c2)cc1,Mycobacterium bovis BCG,-,luminescence,-,MIC50,-,>50 µM

The first 5 rows once more:

SMILES,agent,strain,read by,setting,read-out,dose,value
CCCCCCCCCCCCCCCCCCCCCCOC(=O)NC(C)(CCC(=O)O)CCC(=O)O,Mycobacterium chelonae,EO-P-1,-,-,MIC,-,630 µg/mL
CO[C@@]1(NC(=O)C2SC(=C(C(N)=O)C(=O)[O-])S2)C(=O)N2C(C(=O)[O-])=C(CSc3nnnn3C)CS[C@@H]21,Mycobacterium fortuitum,1049,-,-,MIC,-,50 µg/mL
Cc1ccc2oc(=O)n(-c3ccc(Br)cc3)c(=S)c2c1,Mycobacterium kansasii,My 235/80,-,21 d,MIC,-,4 µM
CO[C@@]1(NC(=O)CSCC#N)C(=O)N2C(C(=O)O)=C(CSc3nnnn3C)CS[C@@H]21,Mycobacterium fortuitum,1059,-,-,MIC,-,12.5 µg/mL
CCc1nc2cc(F)ccn2c1C(=O)NCc1ccc(C2CCN(c3ccc(C)cc3)CC2)cc1F.Cl,Mycobacterium avium,-,fluorescence,-,inhibition,0.0054 µM,85%